pKd: −log10 of the molar value. For some assays here: The exact form of at least one protein or probe is not confirmed. For some assays here: At least one verdict rests on a figure or table, not on a statement of the authors.
Columns and labels:
[1] = target: HfqPae (wild type) (Pseudomonas aeruginosa PAO1) (UniProt Q9HUM0); test: MST; conditions: 30 nM labelled Hfq, 1 mM Mg2+, 25 C, MST: 10 mM Tris pH 8.0, 40 mM NaCl, 10 mM KCl, 1 mM MgCl2, 0.05% Tween, recombinant protein, residues 1-82, probe letters rebuilt from the primers and the genome
[2] = target: HfqPae (wild type) (Pseudomonas aeruginosa PAO1) (UniProt Q9HUM0); test: EMSA; conditions: 10 nM RNA, 1-8-fold Hfq, tRNA competitor; EMSA: 10 mM Tris-HCl pH 8.0, 10 mM MgCl2, 60 mM NaCl, 10 mM NaH2PO4, 10 mM DTT, 25 ng tRNA in 10 ul, 37 C 30 min; recombinant protein; residues 1-82; label: 5'-32P (EMSA), none (MST); probe letters rebuilt from the primers and the genome

Chains of the proteins cited; added tags and fusions are not shown. Lines headed by an entry give the natural chain unless they say otherwise; changes in a name come on top.
UniProt Q9HUM0: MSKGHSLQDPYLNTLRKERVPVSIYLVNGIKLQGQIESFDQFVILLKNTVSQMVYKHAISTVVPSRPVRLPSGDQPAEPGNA

Row | Sequence | pKd [1] | binding result [2]
1 | GGCACAACAACAAUAACAAGCAACGACGAAGACAAUAAAAACAACACGUAACGACUCCAGCACAACAAAAACAAAAUCGCGGAGGCGCAGCUAACUGAUUCUUUUGGAGAGGAGUUGCUGUCGGGACCCGUCCCGCAGCCAGUCGGAAGAAGAAUAAAACUGCCUUGAGGCAGCGCACAGACUGGUUGGAUCGCUCGACGAUCAUGGCAGCAUCAGCGACCAAAGCAAUCCGUUUGCUAUUGAACUCCCAGCCUGGGAGAUAUCCCUGAAGCGACUGGCUCAAGGGACGGGUCGACAAACAAAAACAACAAGCCCGAAAUCAUAAUAAAAACAAAGCACGCACCUACUUGGGGGGGAGCUUCGGCUCCCCCAGUAGCUUCACCCCCUCCCUCCGUUUUCCCCGUUUUUCCUUCGCCUUACACCAUUUCGGAUCCGCAU [CrcZ RNA] | 8.13 | 
2 | GGGAGCCGGCCUUGCGCCGGCAUAUGCCUUGCAUUUUGCUGAAAACAGAGCGCCAGCAGAGCGCACCCCCAGCCUUGCCGUGUCGAGUGCCGAACCAUGAUGAGGACCCAUCCCGUCGCCGAUCGUGGCGAUCUCCAUGCCGACCACCUGGACCUGGCCGCCG [antR(-95-+67) mRNA fragment] |  | binds
